Assay results published in article PMC10169850.
The exact form of at least one protein or probe is not confirmed. Where a protein sequence is shown, tags need not be part of it.

Biological target: T1, Fnr-His6 (Salmonella enterica serovar Typhimurium 14028S) (UniProt P0A2T8)
T1 sequence (looked up, limits assumed): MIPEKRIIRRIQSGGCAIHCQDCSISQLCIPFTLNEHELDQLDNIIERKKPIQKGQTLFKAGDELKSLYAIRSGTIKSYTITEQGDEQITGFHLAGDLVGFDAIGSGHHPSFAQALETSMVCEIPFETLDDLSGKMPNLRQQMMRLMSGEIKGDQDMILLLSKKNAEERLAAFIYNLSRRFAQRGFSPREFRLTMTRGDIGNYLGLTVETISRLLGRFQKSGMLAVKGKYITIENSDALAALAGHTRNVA
Assay: EMSA
Conditions: low O2, Fnr 0-20 uM, 20 mM Tris-HCl pH 7.5, 80 mM NaCl, 0.1 mM EDTA, 1 mM DTT, 5% glycerol, recombinant protein, protein details: His6, label: none (ethidium bromide stain), probe letters rebuilt from the primers and the genome

Sequence: TTATCCTGCCAGCCTTCGCGCGCGGTTAACACCAGAACCGGCAGTGAAACATCACTGCTGCGCCAGCGGCGTATTAAGGAAAGGCCGTCTTCATCCGGCAGACCTAAATCGACAATAGCGATATCCGGAAGGTGTTCATTAAGGTAGTAATCAGCTTCCCTGGCATCTTCTGCGGCATCGACCTGGTGACCTGAATCCTGGAGCTGAACCTTCAGGTGGTGGCGTAATAATGCATTATCCTCTACAACCAGTACGCGCATCATCTCTTCTCCCTTGTGTTAACAATAAGAACAGTCTAGCGTTGATTATGGTGCTTTGGGGATAAACAGTTAATAAACCAGACAAATAGTCACCCTCTTTCTGAAGAAAAGAGGGTGAGGCAGGCATTATTTAAGTTCGTCGACCAGAGTCACAGCGCGACCGATATAATTTGCCGGCGTCATGGCTTTAAGGCGCGTTTTTTCTGCTTCCGGCAGGGCCAGACTATCAATAAACTGTTTCATTCCTTCGGC (double strand) [phoPQ promoter]
- binding result: binds
